Compound potency records, mixed from different reports. Data source: NIAID ChemDB in PubChem.

Shared fields: growth or infection tests; organism: Vaccinia virus

Inhibition is in % at the dose shown (toxicity tests: loss of growth or viability). Blank or dashed fields: not listed here. ECn: concentration that inhibits the pathogen or its effect by n%. a–b is a range or a potency band. Conditions beyond the fields shown may differ between rows.

smiles	cell line	strain or isolate	tested at	measure	value
CCn1cnc(=N)c2[nH]cnc21	BSC-1		25 µg/mL	inhibition	0%
Cc1nc(Cc2n[nH]c(=S)n2-c2ccccc2)nn1C				MIC	400 µg/mL
CCc1cn([C@@H]2O[C@H](COP(=O)(O)O)[C@@H](O)[C@H]2O)c(=O)nc1N				EC50	>400 µg/mL
Nc1ncnc2c1ncn2C[C@@H](CO)OCP(=O)(O)O				MIC	0.7 µg/mL
CCCn1cnc(=N)c2[nH]cnc21	BSC-1		25 µg/mL	inhibition	0%
O=P1(O)OCC2O[C@@H](n3cnc4c(=S)nc[nH]c43)[C@H](O)C2O1				MIC	3.2–32 µg/mL
O=c1[nH]c(=O)n([C@H]2C[C@H](O)[C@@H](CO)O2)cc1/C=C/C(F)(F)F	PRK			EC99	>100 µg/mL
Cn1cc(NC(=O)c2cc(NC(=O)CN=C(N)N)cn2C)c(C(=O)NCCC(=N)N)c1	BSC-1	Noguchi	50 µg/mL	inhibition	73%
Nc1nccc2c1ncn2[C@@H]1C=C[C@@H](O)[C@H]1O				MIC	0.7 µg/mL
CC(C)c1cn([C@@H]2OC3COP(=O)(O)OC3[C@H]2O)c(=O)nc1N				EC50	>400 µg/mL
O=P1(O)OCC2O[C@@H](n3cnc4c(SCc5ccccc5)ncnc43)[C@H](O)C2O1				MIC	100 µg/mL
Cn1cc(NC(=O)c2cc(NC(=O)c3cc(NC(=O)c4cc(NC(=O)c5cc(NC=O)cn5C)cn4C)cn3C)cn2C)cc1C(=O)NCCC(=N)N	BSC-1	Noguchi	75 µg/mL	inhibition	57%
CCn1nc(CC(=O)N/N=C/c2ccco2)nc1C				MIC	>400 µg/mL
Nc1nccc2c1ncn2[C@@H]1C=C(CO)[C@@H](O)[C@H]1O				MIC	0.07 µg/mL
CCc1nc(CC(=O)NN=C(C)C)nn1CC				MIC	>400 µg/mL
Cc1cn([C@@H]2O[C@H](COP(=O)(O)O)[C@@H](O)[C@H]2O)c(=O)nc1N				EC50	>400 µg/mL
Nc1ncnc2c1ncn2[C@@H]1CC[C@@H](O)[C@H]1O				MIC	0.02 µg/mL
NNC(=O)Cc1nc2n(n1)CCCCC2				MIC	>400 µg/mL
CCCCc1cn([C@@H]2O[C@H](COP(=O)(O)O)[C@@H](O)[C@H]2O)c(=O)nc1N				EC50	>400 µg/mL
Cc1ccccc1Cn1cnc(=N)c2[nH]cnc21	BSC-1		50 µg/mL	inhibition	0%
CCn1nc(CC(=O)NN=C(C)C)nc1C				MIC	>400 µg/mL

A second listing of 3 rows from above:

smiles,cell line,strain or isolate,tested at,measure,value
CCCCc1cn([C@@H]2O[C@H](COP(=O)(O)O)[C@@H](O)[C@H]2O)c(=O)nc1N,,,,EC50,>400 µg/mL
Nc1nccc2c1ncn2[C@@H]1C=C(CO)[C@@H](O)[C@H]1O,,,,MIC,0.07 µg/mL
Cn1cc(NC(=O)c2cc(NC(=O)CN=C(N)N)cn2C)c(C(=O)NCCC(=N)N)c1,BSC-1,Noguchi,50 µg/mL,inhibition,73%